The list shows a part of the results, in another mix than the full data. Calls of active or inactive are those of the source. No stated cut-off is given here; in the data, active means inhibition mostly above about 28% (no sharp cut-off); inactive means mostly below about 43%.
Test: A qHTS for Small Molecule Inhibitors of Shiga Toxin; further: 0% is about no effect
Conditions: Vero cells, Shiga toxin protein synthesis inhibition reporter; at 38.7 µM; stronger effect = higher value

Row | Structure (SMILES) | inhibition
1 | CCOP(=O)(Nc1cccc2cccnc12)OCC | inactive: 6.68%
2 | CCC(C)N(CC(C)C)C(=S)SC(NC(C)=O)C(Cl)(Cl)Cl (stereo unspecified) | inactive: 23%
3 | CCOC(=O)c1ccc(NC(=O)C(C)(CCl)SC)cc1 (stereo unspecified) | active: 78.9%
4 | O=C(OC1CN2CCC1CC2)c1cccc([N+](=O)[O-])c1 (stereo unspecified) | inactive: 3.87%
5 | O=C(Nc1ccncc1[N+](=O)[O-])c1ccc([N+](=O)[O-])cc1[N+](=O)[O-] | inactive: -2.59%
6 | O=C(COc1ccccc1)OC1CN2CCC1CC2 (stereo unspecified) | inactive: -1.65%
7 | COP1(=S)c2c(C)nn(CCC#N)c2N=C(c2ccc(F)cc2)N1C (stereo unspecified) | inactive: -6.81%
8 | O=[N+]([O-])c1ccc(Nc2ccc(Oc3ccc([N+](=O)[O-])cc3[N+](=O)[O-])cc2)c([N+](=O)[O-])c1 | inactive: -6.11%
9 | O=P(Nc1ccccn1)(c1cccc2ccccc12)c1cccc2ccccc12 | inactive: -6.79%
10 | Cc1cc(SC(NC=O)C(Cl)(Cl)Cl)ncn1 (stereo unspecified) | inactive: 5.47%
11 | CCOC(=O)Nc1cccc([As](=O)(O)O)c1 | inactive: -5.6%
12 | Cc1cc(SC(NC(=O)c2ccccc2)C(Cl)(Cl)Cl)nc(C(C)C)n1 (stereo unspecified) | inactive: 10.8%
13 | CCCCOc1ccc(C(=O)NCC2(N3CCCCC3)CCCCC2)cc1OC | inactive: -4.34%
14 | CCOC(=O)Nc1ccc([As](=O)(O)O)c(O)c1 | inactive: -20%
15 | O=[N+]([O-])c1cc([N+](=O)[O-])c(-c2ccn[nH]2)s1 | active: 62.6%
16 | CCN(CC)C(=S)SC(NC=O)C(Cl)(Cl)Cl (stereo unspecified) | inactive: -2.16%
17 | CC(C)NC(=O)NP(=O)(Oc1ccccc1)Oc1ccccc1 | inactive: 17%
18 | CC(C)c1ccc(OP(=O)(Nc2ccccn2)Oc2ccccc2F)cc1 (stereo unspecified) | inactive: 35%
19 | ClCCSc1nnc(-c2cccnc2)o1 | inactive: 19.9%
20 | Cc1ccc2nc3c(c(C)c2c1)CC(C(Cl)Cl)S3 (stereo unspecified) | inactive: 29.6%
21 | Cc1ccc(OP(=O)(Nc2ccc([N+](=O)[O-])cn2)Oc2ccc(C)cc2)cc1 | inactive: 1.74%
22 | O=[As](O)(c1ccc(O)cc1)c1ccccc1O | inactive: 5.18%

Row | Structure (SMILES) | inhibition
23 | C[As](=O)(O)c1cccc(C(=O)O)c1 | inactive: -1.74%
24 | COc1ccc(N/C(=N/P(=O)(N2CCOCC2)N2CCOCC2)N2CCOCC2)cc1 | inactive: 53.2%
25 | COc1cc(I)ccc1[As](=O)(O)O | inactive: 6.91%
26 | COc1ccc2nc(NP(=O)(c3ccccc3)c3ccccc3)sc2c1 | inactive: -3.34%
27 | Cc1cc(=O)[nH]c(N[N+](=O)[O-])n1 | inactive: 10.8%
28 | O=C(OC1CN2CCC1CC2)C12CC3CC(CC(C3)C1)C2 (stereo unspecified) | inactive: -6.19%
29 | Cc1c2c(nc3ccccc13)SC(C(Cl)Cl)C2 (stereo unspecified) | inactive: 38.4%
30 | CCOP(=O)(Nc1cccc2ccccc12)OCC | inactive: -3%
31 | COc1cc(C2NCCC3(OCCO3)C2(C)C)cc(OC)c1OC (stereo unspecified) | inactive: -2.59%
32 | CCCOP(=S)(Nc1nc(N)cc(=O)[nH]1)OCCC | inactive: -4.49%
33 | Nc1cccc2c([As](=O)(O)O)cccc12 | inactive: -7.03%
34 | O=[As](O)(c1cccc(O)c1)c1cccc(O)c1 | inactive: -20.5%
35 | Cc1cccc(OCC(=O)OC2CN3CCC2CC3)c1 (stereo unspecified) | inactive: -6.55%
36 | CS(=O)(=O)c1ccc(Cl)c(NC(=O)COC(=O)C(O)(c2ccccc2)c2ccccc2)c1 | inactive: -5.83%
37 | COc1cc(C(=O)NCC2(N3CCOCC3)CCCCC2)cc(Cl)c1OC(C)C | inactive: -7.41%
38 | O=[As](O)(O)c1cccnc1 | inactive: 26.6%
39 | O=C(OC1CN2CCC1CC2)c1ccc(Cl)cc1 (stereo unspecified) | inactive: -10.6%
40 | O=[N+]([O-])c1ccc2c(c1)nnn2O | inactive: -9.09%
41 | CN(C(=O)Cc1ccccc1)[C@@H]1CC[C@]2(CCCO2)C[C@H]1N1CCCC1 | inactive: 1.55%
42 | CCOP1(=S)c2c(C)nn(CCC#N)c2N=C(c2ccc(F)cc2)N1C (stereo unspecified) | inactive: -14.3%
43 | NC(=O)Nc1ccc([As](=O)(O)O)cc1 | inactive: -4.45%
44 | Nc1ccccc1[As](=O)(O)c1ccccc1 | inactive: 18.9%

Row | Structure (SMILES) | inhibition
45 | O=C(O)COc1ccc([As](=O)(O)O)cc1[N+](=O)[O-] | inactive: 18.3%
46 | O=P(Nc1nccs1)(c1ccccc1)c1nc2ccccc2s1 (stereo unspecified) | inactive: 10.4%
47 | O=P(Nc1nccs1)(Oc1ccccc1)Oc1ccccc1 | inactive: 41.9%
48 | CCOP1(=S)c2c(C)nn(CCC#N)c2N=C(c2ccccc2F)N1C (stereo unspecified) | inactive: -17.1%
49 | O=P1(Nc2ccc(Br)cn2)COc2ccccc2OC1 | inactive: -26.5%
50 | Cc1ccc(OCC(=O)OC2CN3CCC2CC3)cc1 (stereo unspecified) | inactive: -3.4%
51 | O=[As](O)(c1cccs1)c1cccs1 | inactive: 3.03%
52 | Nc1cccc([As](=O)(O)c2ccccc2)c1 | inactive: -1.85%
53 | O=P1(Nc2ncccn2)COc2ccccc2OC1 | inactive: -7.72%
54 | O=C(/C=C/c1ccccc1)OC1CN2CCC1CC2 (stereo unspecified) | inactive: 22%
55 | CN(C)C1(CNC(=O)c2ccc(S(C)(=O)=O)cc2)CCCCC1 | inactive: -1.29%
56 | CC1CCC(C(C)C)C(OP(=O)(Nc2ccccn2)c2ccccc2)C1 (stereo unspecified) | inactive: -15.6%
57 | Cc1ccc(C(=O)OC2CN3CCC2CC3)cc1 (stereo unspecified) | inactive: -6.05%
58 | Cc1nn(-c2ccccc2)c2c1P(=O)(N1CCOCC1)N(C)C(c1ccccc1)=N2 (stereo unspecified) | inactive: -5.61%
59 | O=[As](O)(c1ccccc1Br)c1ccccc1Br | inactive: 14.8%
60 | CC(C)/C=N\N=C(\N)N[N+](=O)[O-] | inactive: -5.68%
61 | CN(C(=O)Cc1ccc(Cl)c(Cl)c1)[C@@H]1CCCC[C@H]1N1CCCC1 | inactive: -9%
62 | CC(C)(C)C(=O)NC(Sc1ncccn1)C(Cl)(Cl)Cl (stereo unspecified) | inactive: -13.5%
63 | Clc1n[nH]nc1-c1nn[nH][15n]1 | inactive: -50.3%
64 | CCOP(=O)(Nc1ccc(C)cn1)OCC | inactive: -7.29%
65 | CCOP(=O)(NC(=NC(C)c1ccccc1)NC(C)c1ccccc1)OCC (stereo unspecified) | inactive: 3.41%
66 | O=P1(Nc2ccccn2)COc2ccccc2OC1 | inactive: -9.97%
